Compound potency records, mixed from different reports. Data source: NIAID ChemDB in PubChem.

Shared fields: whole-cell or culture tests; agent: Cryptococcus neoformans

MIC50, MIC90 and the like: level of inhibition, or share of isolates inhibited. Rows are shuffled and stem from different studies. An empty or dashed field is not shown.

Cn1nc(Cc2ccc(Cl)cc2)c2ccccc2c1=O ; read-out: MFC ; method: broth dilution ; strain or isolate: ATCC 32264 ; value: 15.6 µg/mL
COc1ccccc1C1C(C#N)=C(N)OC2=C1CSc1ccccc12 ; read-out: MIC ; strain or isolate: 25 ; value: 1.25 µg/mL
CCOC(=O)c1c(C)nc(NCCCCNc2ccnc3cc(Cl)ccc23)nc1-c1ccccc1[N+](=O)[O-] ; read-out: MIC99 ; strain or isolate: 96806 ; value: 45.3 µg/mL
CCCOc1nc2c(c(-c3ccc4c(c3)OCO4)c1C#N)CSc1ccc(Cl)cc1-2 ; read-out: MIC ; strain or isolate: 93/V ; value: 50 µg/mL
Cc1ccc(/C=C2\CSc3ccccc3C2=O)cc1 ; read-out: MIC ; strain or isolate: 93/V ; value: 50 µg/mL
C[C@@H](n1ncn(-c2ccc(OCC(F)(F)C(F)F)cc2)c1=O)[C@](O)(Cn1cncn1)c1ccc(F)cc1F ; read-out: MFC ; strain or isolate: DUMC 109.97 ; value: 4 µg/mL
CCC(C)n1ncn(-c2ccc(N3CCN(c4ccc(OC[C@H]5CO[C@](Cn6cncn6)(c6ccc(Cl)cc6Cl)O5)cc4)CC3)cc2)c1=O ; read-out: MIC ; strain or isolate: DUMC136.89 ; value: 0.008 µg/mL
COc1ccc(/C=C2\COc3ccccc3C2=O)cc1 ; read-out: MIC ; strain or isolate: 25 ; value: 50 µg/mL
CN[C@H]1CC[C@@H](c2ccc(Cl)c(Cl)c2)c2ccccc21 ; read-out: MIC90 ; method: broth dilution ; strain or isolate: Bt31 ; value: 4 µg/mL
COc1ccc(/C=C2\CSc3ccc(OC)cc3C2=O)cc1 ; read-out: MIC ; strain or isolate: 25 ; value: 12.5 µg/mL
CCOC(=O)c1c(C)nc(NCCCCNc2ccnc3cc(Cl)ccc23)nc1-c1ccc(F)cc1 ; read-out: MIC99 ; strain or isolate: 27JF ; value: 4 µg/mL
CC(C(O)(Cn1cncn1)c1ccc(F)cc1F)S(C)(=O)=O ; read-out: MIC ; strain or isolate: R716 (AZOLE-R) ; value: 10 µM
COc1ccc(/C=C2\COc3ccc(-c4ccccc4)cc3C2=O)cc1OC ; read-out: MIC ; strain or isolate: Farwania ; value: 100 µg/mL
O=[N+]([O-])c1ccc(C=Nc2ccccc2O)cc1 ; read-out: MIC ; method: broth dilution ; strain or isolate: C-3-1 ; value: 8 µg/mL
COC1CC2CCC(C)C(O)(O2)C(O)C(O)N2CCCCC2C(=O)OC(C(C)CC2CCC(O)C(OC)C2)CC(=O)C(C)/C=C(\C)C(O)C(OC)C(=O)C(C)CC(C)/C=C/C=C/C=C/1C ; read-out: MFC ; strain or isolate: FRR1 ; value: >100 µg/mL
Oc1cccc(C=Nc2ccccc2O)c1 ; read-out: MIC99 ; strain or isolate: ATCC 28957 ; value: 2.8 µg/mL
C[C@@H](c1ncncc1F)[C@](O)(Cn1cncn1)c1ccc(F)cc1F ; read-out: MIC ; method: broth dilution ; strain or isolate: Clinical isolate (IM 983040) ; value: <0.015 µg/mL
COc1ccc(C2C(C#N)=C(N)OC3=C2CSc2ccccc23)cc1 ; read-out: MIC ; strain or isolate: 25 ; value: 12.5 µg/mL
Oc1ccccc1N=Cc1ccccc1 ; read-out: MIC99 ; strain or isolate: ATCC 24067 ; value: 5.7 µg/mL
COc1ccc(/C=C2\CS(=O)c3ccccc3C2=O)cc1 ; read-out: MIC ; strain or isolate: Farwania ; value: 50 µg/mL
Oc1ccc(O)c(C=Nc2ccccc2O)c1 ; read-out: MIC ; method: broth dilution ; strain or isolate: LMM 820 ; value: 5.7 µg/mL
COc1ccc(C2C(C#N)=C(N)OC3=C2CSc2ccccc23)cc1OC ; read-out: MIC ; strain or isolate: Farwania ; value: 12.5 µg/mL
CCC(C)n1ncn(-c2ccc(N3CCN(c4ccc(OC[C@H]5CO[C@](Cn6cncn6)(c6ccc(Cl)cc6Cl)O5)cc4)CC3)cc2)c1=O ; read-out: MIC50 ; strain or isolate: 32 isolates ; value: 0.008 µg/mL
COC1CC2CCC(C)C(O)(O2)C(=O)C(=O)N2CCCCC2C(=O)OC(C(C)CC2CCC(O)C(OC)C2)CC(=O)C(C)/C=C(\C)[C@@](O)(c2ccc(C)s2)C(OC)C(=O)C(C)CC(C)/C=C/C=C/C=C/1C ; read-out: MFC ; strain or isolate: FRR1 ; value: >100 µg/mL
COc1ccc(-c2c(C#N)c(OC)nc3c2CSc2ccc(Cl)cc2-3)cc1O ; read-out: MIC ; strain or isolate: 93/V ; value: 50 µg/mL
COc1cc(/C=C2\CSc3ccccc3C2=O)ccc1O ; read-out: MIC ; strain or isolate: 93/V ; value: 6 µg/mL
COc1ccc2c(c1)-c1nc(OC)c(C#N)c(-c3ccc4c(c3)OCO4)c1CS2 ; read-out: MIC ; strain or isolate: 25 ; value: 3 µg/mL
C[C@@H](n1cnc2cc(Cl)ccc2c1=O)[C@](O)(Cn1cncn1)c1ccc(F)cc1F ; read-out: MIC ; strain or isolate: Isolate 125.96 ; value: ≤0.0012 µg/mL
COc1nc2c(c(-c3ccc4c(c3)OCO4)c1C#N)CSc1ccccc1-2 ; read-out: MIC ; strain or isolate: 25 ; value: 3 µg/mL
Oc1ccccc1N=Cc1ccc(F)cc1 ; read-out: MIC ; method: broth dilution ; strain or isolate: VM-MCMMPI ; value: 8 µg/mL
CCC(C)CC(C)CCCCCCCCC(=O)N[C@H]1C[C@@H](O)[C@H](NCCN)NC(=O)[C@@H]2[C@@H](O)CCN2C(=O)[C@H]([C@H](O)CCN)NC(=O)[C@H]([C@H](O)[C@@H](O)c2ccc(O)cc2)NC(=O)[C@@H]2C[C@@H](O)CN2C(=O)[C@H]([C@@H](C)O)NC1=O ; read-out: MIC ; method: broth dilution ; strain or isolate: B 32480 ; value: 8 µg/mL
Oc1ccccc1N=Cc1ccc(O)c(O)c1O ; read-out: MIC ; method: broth dilution ; strain or isolate: LMM 820 ; value: 11.3 µg/mL
CCOc1ccc(/C=C2\CCc3ccccc3C2=O)cc1 ; read-out: MIC ; strain or isolate: 93/V ; value: 25 µg/mL

The last 3 rows once more:

smiles | read-out | method | strain or isolate | value
CCC(C)CC(C)CCCCCCCCC(=O)N[C@H]1C[C@@H](O)[C@H](NCCN)NC(=O)[C@@H]2[C@@H](O)CCN2C(=O)[C@H]([C@H](O)CCN)NC(=O)[C@H]([C@H](O)[C@@H](O)c2ccc(O)cc2)NC(=O)[C@@H]2C[C@@H](O)CN2C(=O)[C@H]([C@@H](C)O)NC1=O | MIC | broth dilution | B 32480 | 8 µg/mL
Oc1ccccc1N=Cc1ccc(O)c(O)c1O | MIC | broth dilution | LMM 820 | 11.3 µg/mL
CCOc1ccc(/C=C2\CCc3ccccc3C2=O)cc1 | MIC | - | 93/V | 25 µg/mL